From patent US20090029924A1, “Targeting host proteinases as a therapeutic strategy against viral and bacterial pathogens” (published 2009)

Columns and labels:
Recombinant human furin [1] = molecular target: T1, Recombinant human furin (human, UniProt P09958 108-714); experiment: enzyme inhibition; peptide alone
Recombinant human furin [2] = molecular target: T1, Recombinant human furin; experiment: enzyme inhibition; peptide on nanobeads

Binder | Ki (Recombinant human furin [1]) | Ki (Recombinant human furin [2])
GAGAGATPQRARRRKKRW [GAGAGA-TPQRARRRKKRW] | 0.127 µM | –
GGGGGGTPQRARRRKKRW [GGGGGG-TPQRARRRKKRW] | 0.088 µM | 9.09 µM
GGGTPQRARRRKKRW [GGG-TPQRARRRKKRW] | 0.067 µM | 4.28 µM
